Test results as given in paper PMC10749193 (Frontiers in Immunology, 2023).

Target: SARS-CoV-2 spike (D614G)-ectodomain (SARS-CoV-2, Wuhan background with D614G, D614G)
Assay: SPR

B1: anti-S2 monoclonal antibody 4A5 (antibody, V domains shown)
VH: QVKLEQSGPGILQPSQTLSLTCSFSGFSLSTSGMGVSWIRQSSGKGLEWLTHIYWDDDKRYNPSLKSRLTISKDTSRNQVFLKITSVDTADTATYYCARRRMITGLYYAMDYWGQGTSVTVSS
VL: DIVMTQSTLSLPVSFGDQVSISCRSSQSLANSYGITYLSWYLHKPGQSPQLLIYGISNRFSGVPDRFSGSGSGTDFTLKISTIKPEDLGMYYCLQGTHQPWTFGGGTKLEIK
Q: Which Kd does the source give for B1 here?
A: 2.11 nM
